PMC7114565 (Virus Research, 2016)

Tested on: SARS-CoV isolate Frankfurt-1

In the case of `C/C=C/C[C@@H](C)[C@@H](O)[C@H]1C(=O)N[C@@H](CC)C(=O)N(C)[C@H](C)C(=O)N(CC)[C@@H](C(C)C)C(=O)N[C@@H](C(C)C)C(=O)N(C)[C@@H](CC(C)C)C(=O)N[C@@H](C)C(=O)N[C@H](C)C(=O)N(C)[C@@H](CC(C)C)C(=O)N(C)[C@@H](CC(C)C)C(=O)N(C)[C@@H](C(C)C)C(=O)N1C` [ALV, alisporivir], the “SI (CC50/EC50)” value is reported as over 6.0.
